Pooled drug test results. Numbers come from NIAID ChemDB, via PubChem.

ECn: concentration that inhibits the pathogen or its effect by n%. An empty or dashed field is not shown. ICn: concentration for n% inhibition. MIC50, MIC90 and the like: level of inhibition, or share of isolates inhibited. Percent inhibition refers to the dose given; in toxicity tests it is the harm to the cells. Lines come from different laboratories, so protocols vary.

smiles | species | tested at | cell line | strain | read-out | test | read by | target | value
O=S(=O)([O-])c1ccc(NS(=O)(=O)c2ccccc2)c2c(S(=O)(=O)[O-])cccc12 | Herpes simplex virus | 50 µg/mL | Human amnion AV3 cells | - | inhibition | culture | cytopathic effect | - | 30%
FC(F)(F)c1cc(-c2cncc(N3CCN(c4ccncc4)CC3)n2)cc(C(F)(F)F)c1 | Cytomegalovirus | - | - | - | IC50 | target | - | UL97 kinase | <100 µM
O=S(=O)([O-])c1ccc(O)c2ccccc12 | Adenovirus | 10 µg/mL | Human embryonic lung cells | TYPE 3 | inhibition | culture | cytopathic effect | - | 10%
OCc1ccc(-c2cncc(N3CCN(c4ccccn4)CC3)n2)cc1 | Cytomegalovirus | - | - | - | IC50 | target | - | UL97 kinase | <10 µM
O=S(=O)([O-])c1cc(NS(=O)(=O)c2ccccc2)c2c(S(=O)(=O)[O-])cc(S(=O)(=O)[O-])cc2c1 | Adenovirus | 10 µg/mL | Human amnion AV3 cells | TYPE 3 | inhibition | culture | cytopathic effect | - | 0%
C=CCc1ccc(OC)c(OC)c1 | Candida glabrata | - | - | 3080 | MIC90 | culture | turbidity | - | 350 µg/mL
COc1ccc(N2CCN(c3cncc(-c4ccc(C(F)(F)F)cc4)n3)CC2)cc1 | Cytomegalovirus | - | - | - | IC50 | target | - | UL97 kinase | <10 µM
Fc1ccc(N2CCCCC2)c(NC(=S)c2ccncc2)c1 | - | 10 µM | - | - | inhibition | host protein | kinase activity | Pim-1 | 64%
CN(C)CCNC(=O)c1cccc(-c2cncc(Nc3ccc(C#N)c(Cl)c3)n2)c1 | Cytomegalovirus | - | - | - | IC50 | target | - | UL97 kinase | <1 µM
CCOC(=O)c1ccc(OCCC2CCN(c3ccc(C)nn3)CC2)cc1 | Rhinovirus | - | KB | 204-CV14 (ICAM-1 receptor group 10) | EC50 | culture | neutral red | - | 0.596 µM
CCOc1ccc(-c2cncc(N3CCN(c4ccc(OC)c(OC)c4)CC3)n2)cc1 | Cytomegalovirus | 1 µM | - | - | inhibition | target | - | UL97 kinase | <50%
O=S(=O)([O-])c1ccc2c(NS(=O)(=O)c3ccccc3)cc(S(=O)(=O)[O-])cc2c1 | Adenovirus | 5 µg/mL | Human embryonic lung cells | TYPE 3 | inhibition | culture | cytopathic effect | - | 23%
CC(=O)N[C@H]1[C@H]([C@H](O)[C@H](O)CO)OC(C(=O)O)=C[C@@H]1N=C(N)N | Influenza A virus | - | MDCK | Influenza A/Shandong/09/93 (H3N2) | EC50 | culture | - | - | 0.5 µM
Nc1c(S(=O)(=O)[O-])cc2cc(S(=O)(=O)[O-])ccc2c1O | Herpes simplex virus | 5 µg/mL | Human conjunctiva cells | - | inhibition | culture | cytopathic effect | - | 0%
CCOC(=O)/C=C/[C@H](C[C@@H]1CCNC1=O)NC(=O)[C@@H](CC(=O)[C@@H](NC(=O)c1cc(C)on1)C(C)C)Cc1ccc(F)cc1 | Rhinovirus | - | OHIO HELA-I | Isolate 43 | EC50 | culture | cytopathic effect / visual reading | - | 0.02 µg/mL

Repeating the final 2 entries:

smiles,species,tested at,cell line,strain,read-out,test,read by,target,value
Nc1c(S(=O)(=O)[O-])cc2cc(S(=O)(=O)[O-])ccc2c1O,Herpes simplex virus,5 µg/mL,Human conjunctiva cells,-,inhibition,culture,cytopathic effect,-,0%
CCOC(=O)/C=C/[C@H](C[C@@H]1CCNC1=O)NC(=O)[C@@H](CC(=O)[C@@H](NC(=O)c1cc(C)on1)C(C)C)Cc1ccc(F)cc1,Rhinovirus,-,OHIO HELA-I,Isolate 43,EC50,culture,cytopathic effect / visual reading,-,0.02 µg/mL